Holding throughout (assay): biochemical
Assay [1] deals with HLA-DQ DQA1*04:01/DQB1*04:02 (Homo sapiens, UniProt P01909+P01920, A45G/E106S/E183D/E77G/E98D/H199R/I129T/K197E/L107V/L178F/L91T/P87R/P88L/R102E/S185I/S97I/T103D/T217I/V99I/Y41F/Y58G).
The target in assay [2] is HLA-DQ DQA1*01:02/DQB1*06:02 (Homo sapiens, UniProt P01909+P01920, A157G/A45G/C70R/E118A/E183D/E77G/F83G/G63E/H151Q/H199R/H252R/H253Q/I129T/I235V/I88M/INS77G/K197Q/L117V/L119F/L178F/L71W/L74F/L85Q/L91A/L98M/N214S/P87R/Q116E/Q76K/R102G/R240Q/R75S/R78G/S102Y/S185I/S41F/S97I/T121G/T122I/T172A/T86R/V229M/V68A/V73E/Y34C/Y41F/Y58L). The assay is classed as binding.
Assay [3] concerns the target HLA-DQ DQA1*05:01/DQB1*02:01 (Homo sapiens, UniProt P01909+P01920, A45G/A70V/D89A/E106A/E77G/E98D/H199R/L107V/N214S/P84L/P87L/T103K/T109R/T172A/T60S/V78E/V99I/Y58L/Y62S/Y69I/Y79F).
Assay [4] addresses HLA-DQ DQA1*01:03/DQB1*06:03 (Homo sapiens, UniProt P01909+P01920, A157G/A45G/C70R/E118A/E183D/E77G/F83G/G63E/H199R/H252R/H253Q/I129T/I235V/I88M/INS77G/K197Q/L117V/L119F/L178F/L71W/L74F/L85Q/L91A/L98M/N214S/P87R/Q116E/Q76K/R102G/R240Q/R64K/R75S/R78G/S102Y/S152A/S185I/S41F/S97I/T121G/T122I/T172A/T86R/V68A/V73E/Y34C/Y48F/Y58L/Y62H).
The target of assay [5] is HLA-DQ DQA1*01:02/DQB1*05:02 (Homo sapiens, UniProt P01909+P01920, A157S/A45G/A70V/C70R/D89S/E106S/E118A/E183D/E77G/F83G/G63E/H151Q/H199R/H252R/H253Q/I129T/I235V/I88M/INS77G/K197Q/L107V/L117V/L119Y/L178F/L71W/L74F/L85Q/L91A/L98M/M46L/N214S/P87R/Q116E/Q158H/Q256R/Q76K/R102G/R240Q/R75S/R78G/S102Y/S185I/S41F/S97I/T103A/T109R/T121G/T122I/T172A/T86R/V148I/V229M/V68A/V73E/Y34C/Y58G/Y62H).

Assay [6] addresses HLA-DQ DQA1*03:01/DQB1*03:01 (Homo sapiens, UniProt P01909+P01920, A209T/C70Q/DUP78-78/E183D/F237L/G63E/I129T/K197E/L178F/L74F/L98V/Q57E/Q76R/S185I/S97I/T49S/V73L). The assay is classed as binding.
Assay [7] concerns the target HLA-DQ DQA1*03:01/DQB1*03:02 (Homo sapiens, UniProt P01909+P01920, A209T/A45G/C70Q/D89A/DUP78-78/E183D/E77G/F237L/G63E/H199R/I129T/K197E/L178F/L74F/L98V/Q57E/Q76R/S185I/S97I/T217I/T49S/V73L/Y58L). Type of assay: binding.
Assay [8] has as its target HLA-DQ DQA1*01:04/DQB1*05:03 (Homo sapiens, UniProt P01909+P01920, A157S/A221T/A45G/A70V/C70R/D25G/E106S/E118A/E183D/E77G/F83G/G63E/H151Q/H199R/H252R/H253Q/I129T/I235V/I88M/INS77G/K197Q/L107V/L117V/L119Y/L178F/L71W/L74F/L85Q/L91A/L98M/M46L/N214S/P87R/Q116E/Q256R/Q57E/Q76K/R102G/R240Q/R75S/R78G/S102Y/S185I/S41F/S97I/T103A/T109R/T121G/T122I/T172A/T86R/V148I/V68A/V73E/Y34C/Y58G/Y62H).

Assay [9] addresses HLA-DQ DQA1*02:01/DQB1*02:02 (Homo sapiens, UniProt P01909+P01920, A45G/A70V/C70K/D167G/D89A/E106A/E183D/E77G/E98D/F237L/F77L/G63E/H199R/I129T/K197E/L107V/L178F/L74F/N214S/P84L/P87L/Q57E/Q76R/R75H/S185I/S97I/T103K/T109R/T172A/T60S/V73L/V78E/V99I/Y48F/Y58L/Y62S/Y69I/Y79F). The assay is classed as binding. Conditions: read-out: Binding capacity/IC50 (nM) DQA1*02:01 DQB1*02:02.
The target of assay [10] is HLA-DQ DQA1*01:01/DQB1*05:01 (Homo sapiens, UniProt P01909+P01920, A157S/A45G/A70V/C70R/D89V/E106S/E118A/E183D/E77G/F83G/G63E/H151Q/H199R/H252R/H253Q/I129T/I235V/I88M/INS77G/K197Q/L107V/L117V/L119Y/L178F/L71W/L74F/L85Q/L91A/L98M/M46L/N214S/P87R/Q116E/Q256R/Q57E/Q76K/R102G/R240Q/R75S/R78G/S102Y/S185I/S41F/S97I/T103A/T109R/T121G/T122I/T172A/T86R/V148I/V68A/V73E/Y34C/Y58G/Y62H).

Setting [11] is: read-out: Binding capacity/IC50 (nM) DQA1*01:02 DQB1*06:02.
The mark [12] stands for this setting: read-out: Binding capacity/IC50 (nM) DQA1*03:01 DQB1*03:01.
[13] abbreviates: read-out: Binding capacity/IC50 (nM) DQA1*03:01 DQB1*03:02.

Where two headings read alike, the source gives them in different places. Some results are limits rather than exact numbers.

On to `CC[C@H](C)[C@H](NC(=O)[C@H](Cc1ccc(O)cc1)NC(=O)CNC(=O)[C@H](CO)NC(=O)[C@H](C)NC(=O)[C@@H](NC(=O)[C@H](Cc1c[nH]cn1)NC(=O)[C@@H](NC(=O)[C@H](C)NC(=O)[C@@H](NC(=O)[C@H](CC(C)C)NC(=O)[C@@H](NC(=O)[C@@H](NC(=O)[C@H](CCCCN)NC(=O)CNC(=O)[C@@H](N)CCC(=O)O)[C@@H](C)CC)[C@@H](C)CC)C(C)C)C(C)C)C(C)C)C(=O)N[C@@H](CCC(=O)O)C(N)=O` [integrase(69-85)], for which the IC50 in [1] was 5.62 µM; in assay [2] (setting [11]), 14 nM; in assay [3], 5.7 µM; in assay [4] it was 21.5 µM; in [5], 0.63 µM; in assay [6] (setting [12]) it was 426 nM. Moreover, the IC50 in assay [7] (setting [13]) is above 30000 nM; in [8], 0.734 µM; in [9], 5590 nM; in assay [10], 0.409 µM.
For `CC[C@H](C)[C@H](NC(=O)[C@@H](NC(=O)[C@H](CCCCN)NC(=O)[C@@H](NC(=O)[C@@H]1CCCN1C(=O)[C@H](Cc1c[nH]c2ccccc12)NC(=O)[C@H](CCCNC(=N)N)NC(=O)CNC(=O)[C@H](C)NC(=O)[C@H](CC(C)C)NC(=O)[C@H](CCCCN)NC(=O)[C@H](CC(C)C)NC(=O)[C@@H](NC(=O)[C@H](Cc1ccccc1)NC(=O)[C@H](Cc1ccc(O)cc1)NC(=O)[C@H](C)NC(=O)[C@@H](NC(=O)[C@@H](N)CCC(=O)O)[C@@H](C)O)[C@@H](C)CC)C(C)C)C(C)C)C(N)=O` [integrase(96-113)], the IC50 in assay [1] is above 30 µM; in assay [2] (setting [11]), 311 nM; in assay [3], above 30 µM; in [4], 1.24 µM; in assay [5], 0.564 µM; in assay [6] it was 5410 nM. The IC50 in [7] (setting [13]) was 7100 nM; in [8], 0.268 µM; in [9], above 30000 nM; in assay [10], 0.098 µM.
For `CC[C@H](C)[C@H](NC(=O)[C@H](CCCCN)NC(=O)[C@@H](NC(=O)[C@@H](NC(=O)[C@@H](N)CCC(N)=O)[C@@H](C)CC)[C@@H](C)O)C(=O)N[C@@H](CCC(N)=O)C(=O)N[C@@H](CC(N)=O)C(=O)N[C@@H](Cc1ccccc1)C(=O)N[C@@H](CCCNC(=N)N)C(=O)N[C@H](C(=O)N[C@@H](Cc1ccc(O)cc1)C(=O)N[C@@H](Cc1ccc(O)cc1)C(=O)N[C@@H](CCCNC(=N)N)C(=O)N[C@@H](CC(=O)O)C(=O)N[C@@H](CO)C(=O)N[C@@H](CCCNC(=N)N)C(=O)N[C@@H](CC(=O)O)C(=O)N1CCC[C@H]1C(=O)N[C@H](C(=O)N[C@@H](Cc1c[nH]c2ccccc12)C(N)=O)[C@@H](C)CC)C(C)C` [integrase(216-235)], the IC50 in assay [1] came out at 9.77 µM; in assay [2] it was 5010 nM; in [3], 3.35 µM; in assay [4] it was 0.153 µM; in assay [5], 0.076 µM; in assay [6] it was 6320 nM. Further, the IC50 in assay [7] was above 30000 nM; in assay [8], 0.202 µM; in assay [9], 4880 nM; in assay [10], 0.038 µM.
On to `CC[C@H](C)[C@H](NC(=O)[C@@H](NC(=O)[C@H](CCCCN)NC(=O)[C@H](C)NC(=O)[C@H](CCCCN)NC(=O)[C@H](CCCNC(=N)N)NC(=O)[C@H](CCCNC(=N)N)NC(=O)[C@@H]1CCCN1C(=O)[C@@H](NC(=O)[C@@H](NC(=O)[C@H](CCCCN)NC(=O)[C@@H](NC(=O)[C@H](CC(=O)O)NC(=O)[C@H](CO)NC(=O)[C@H](CC(N)=O)NC(=O)[C@H](CC(=O)O)NC(=O)[C@H](CCC(N)=O)NC(=O)[C@@H](NC(=O)[C@@H](NC(=O)[C@@H](N)C(C)C)C(C)C)[C@@H](C)CC)[C@@H](C)CC)C(C)C)C(C)C)[C@@H](C)CC)C(N)=O` [integrase(249-268)], for which the IC50 in assay [1] was above 30 µM; in assay [2] (setting [11]), 11300 nM; in assay [3], above 30 µM; in assay [4] it was 0.884 µM; in assay [5], 4.11 µM; in assay [6], 4190 nM. Also, the IC50 in assay [7] (setting [13]) was above 30000 nM; in assay [8], 24 µM; in [9], above 30000 nM; in [10], 4.04 µM.
On to `CC[C@H](C)[C@H](N)C(=O)N[C@@H](CCCNC(=N)N)C(=O)N[C@@H](Cc1ccc(O)cc1)C(=O)N1CCC[C@H]1C(=O)N[C@@H](CC(C)C)C(=O)N[C@H](C(=O)N[C@@H](Cc1ccccc1)C(=O)NCC(=O)N[C@@H](Cc1c[nH]c2ccccc12)C(=O)N[C@@H](CS)C(=O)N[C@@H](Cc1ccccc1)C(=O)N[C@@H](CCCCN)C(=O)N[C@@H](CC(C)C)C(=O)N[C@H](C(=O)N1CCC[C@H]1C(=O)N[C@H](C(=O)N[C@@H](CC(=O)O)C(=O)N1CCC[C@H]1C(=O)N[C@@H](CCCNC(=N)N)C(=O)N[C@@H](CCC(=O)O)C(=O)N[C@H](C(=O)N[C@@H](CCC(=O)O)C(=O)N[C@@H](CCC(=O)O)C(=O)N[C@@H](C)C(N)=O)C(C)C)C(C)C)C(C)C)[C@@H](C)O` [nef(133-156)], for which the IC50 in assay [1] is 3.98 µM; in [2] (setting [11]), 10200 nM; in assay [3], 1.84 µM; in [4] it was 2.09 µM; in [5], 3.26 µM; in [6] (setting [12]) it was 4270 nM. Also, the IC50 in assay [7] (setting [13]) was above 30000 nM; in [8], 12.3 µM; in assay [9], above 30000 nM; in assay [10], 0.915 µM.
